Target: Carbonic anhydrase (Candida glabrata CBS 138, UniProt Q6FTL6)
Experiment: Inhibition of Candida glabrata carbonic anhydrase by stopped flow CO2 hydration assay

Sequences of proteins named here, by UniProt entry; tags and fusion partners are left off. Residues count along the entry.
UniProt Q6FTL6, 1-219: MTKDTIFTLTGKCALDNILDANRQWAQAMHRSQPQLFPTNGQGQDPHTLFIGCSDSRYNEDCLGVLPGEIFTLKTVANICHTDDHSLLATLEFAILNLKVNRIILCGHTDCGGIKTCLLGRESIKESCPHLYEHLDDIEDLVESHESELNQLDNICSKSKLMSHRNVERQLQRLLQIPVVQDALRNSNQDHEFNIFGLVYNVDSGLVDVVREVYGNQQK

O=[As](O)(O)c1ccccc1
Ki: 98 µM

Reference: ChEMBL document CHEMBL1154023, “Carbonic anhydrase inhibitors. Inhibition of the beta-class enzyme from the pathogenic yeast Candida glabrata with anions” (Bioorg Med Chem Lett, 2009)
